## Percent effect of library compounds

Values are the deposited “Percent Effect”, in %.
The record does not define 0% and 100%; most values in the screen are far below 50% and negative numbers occur (in some assays of this library far below -100).
This is part of a subset picked to be rich in strong results.
Two or more numbers in one place are separate tests of the same structure; such repeats can differ widely.

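Growth of Mycobacterium tuberculosis over 3 days (7H9 medium with glucose and tyloxapol); the read-out is not stated. Compounds at 50 µM. The record gives no direction; compounds that gave an IC50 in retests scored well above the rest, so higher reads as more growth inhibition. About 69,000 compounds were tested under these conditions; 1.1% (about 760) showed 50% or more at least once.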

Compound | effect
CC(=O)N1CCCC2(CCN(Cc3ccc(Cl)c(F)c3)C2)C1 (stereo not given) | -3.831% & 10.73%
CCc1ccc(OCC(=O)N2CCN(CC)CC2)cc1 | 12.71% & 16.95%
CCN1CC2(CCC1=O)CCN(Cc1cscn1)CC2 | -7.781%
CCc1ccc(CN2CCOC(Cc3cccc(F)c3)C2)nc1 (stereo not given) | 50.41%
CN1CCN(C(=O)Cc2ccc(S(=O)(=O)C(F)F)cc2)CC1 | 18.62%
c1cc(-c2ccc3c(c2)CCC32CCN(c3nncs3)CC2)co1 | -37.6%
Cc1cc(C)n(C2CCCN(C(=O)Cc3cccc(F)c3)C2)n1 (stereo not given) | -1.949%
COc1cc(OC)cc(N2CCC(NCc3cc[nH]n3)C2)c1 (stereo not given) | 4.076%
COC(=O)NCC(=O)NC(c1ccc(Cl)cc1)C(F)(F)F (stereo not given) | -4.277% & 8.791%
Cc1cc(N2CCC(CO)(CC3CCCCO3)CC2)nc2ccccc12 (stereo not given) | -21.09% & 11.18%
CCn1ncc(-c2cc(C(F)(F)F)nc(N3CCC(N)CC3)n2)c1C | 47.95% & 43.22%
CN(Cc1nnc(C2CC2)o1)Cc1ccccc1-c1ccccc1 | 69.55% & 45.52%
c1cncc(-c2ccc3c(c2)C2(CCNCC2)CC3)c1 | -60.78% & -0.8428%
COC(C)c1noc(CN2CCCNCC2)n1 (stereo not given) | 13.93%
NC(=O)CSc1nccc(-c2ccc3c(c2)OCO3)n1 | -11.86%
COCCNC(=O)Nc1ccc(F)c(C(N)=O)c1 | 0.667%
Cc1cnc(NC(=O)c2csc(NCC(C)C)n2)s1 | 59.28%
CC(C)c1cc(CN2CCC(N)CC2)no1 | 6.803%
COCCN(C)CC1CCCN1S(=O)(=O)Cc1ccccc1F (stereo not given) | -29.96% & -5.393%
Cc1ccc(OCC(=O)NCc2ccco2)nc1 | 7.529%
COc1ccccc1-c1ncc(CN2CCCC[C@H](N(C)C)C2)s1 | 50.2%
O=C1Nc2ccccc2CN(CC2CC2)C12CCNC2 (stereo not given) | 46.51%
O=C(c1ccnc(N2CCOC(c3ccc(Cl)cc3)C2)c1)N1CCCC1 (stereo not given) | 11.25%
Cc1ccc(C(N)c2cccs2)cc1 (stereo not given) | -32.98%
Cc1cc(Cl)ccc1C(=O)C1CCCN(Cc2cnc(N(C)C)s2)C1 (stereo not given) | 47.2% & 50.71%
CNC(=O)CCCNc1cc(C)nc2cc(C)nn12 | -0.4528%
COc1ccc(C[C@H]2CNCC[C@@H]2OCC2CC2)cc1 | -7.603%
C[C@@H]1CN(c2nc3c(cc2C(N)=O)CCC3)C[C@]1(C)O | 12.88% & -3.604%
CC(C)Cc1ncc2c(n1)CN(c1nccc(NC(C)C)n1)C2 | 62.84%
COc1ccc(S(=O)(=O)Nc2cnc(N(C)C)nc2)cc1 | 10.16%
COc1ccc(C2CCCN2c2cnc3ccccc3n2)c(OC)c1 (stereo not given) | 6.461%
CCn1nc(C)c2c1cnn2CCNS(=O)(=O)c1ccccc1 | -10.06%
CC(C)COC(C)C(=O)NCc1ccccc1 (stereo not given) | 3.013%
CNC(=O)c1cccc(NC(=O)c2ccnc(N(C)C)c2)c1C | 14.15% & 5.609%
O=C(C1CCCOC1)N1CCc2ccc(F)cc21 (stereo not given) | 4.655% & -19.24%
Cc1cc(=O)[nH]c(SC(C)C(=O)N2CCC(c3ncc[nH]3)CC2)n1 (stereo not given) | 5.456%
FC(F)(F)c1cccc(CN2CCOC[C@H](Oc3cccnc3)C2)c1 | 8.173% & -1.962%
O=C1OCCN1CCS(=O)(=O)c1cccc(Br)c1 | -7.049%
CSCc1ccc(C(=O)N2CCN(CC(C)O)CC2)cc1 (stereo not given) | -1.198%
Cc1nc(=O)c2ccccc2n1C1=CCN(CC(=O)NC(C)C)CC1 | 58.9%
Cc1cnn(CC2CN(c3nc4ccccc4o3)CCO2)c1 (stereo not given) | 20.15%
Cc1nnc(CN(C)CC2CCCCC2)o1 | 44.01%
CCN(CCn1cccn1)Cc1nc(-c2cccs2)oc1C | 12.02% & -4.039%
CCOc1ccc2nc(CN3CCOC(CN)C3)ccc2c1 (stereo not given) | 45.03%
CC(C)C[C@H](N)COc1cccc(F)c1Oc1cccc(Cl)c1 | 107.5%
CC(C)Oc1ccc(C(O)CNCc2ccccc2C(F)(F)F)cc1 (stereo not given) | 36.97%
COC(=O)CSc1nnc(CCNC(=O)OC(C)(C)C)o1 | -7.419%
COc1cccc(N2CCC(CNC(=O)NCc3ccco3)C2)c1 (stereo not given) | -13.06%
CCOc1ccc(N2CCCN=C2NC(=O)c2cccc(C)c2)cc1 | -5.993%
COc1ccc(C[C@H]2CN(C(=O)C3CC3)CC[C@H]2OC)cc1 | -7.852%
O=C(NCC1CCOC1)N1CCN(Cc2ccc3c(c2)OCO3)CC1 (stereo not given) | 29.3%
Cc1csc(N2CCN(C(=O)Cc3ccc(C)s3)CC2)n1 | -22.23%
COc1ccc(-c2cccc3c2OC(CN)C3)cc1F (stereo not given) | 39.23% & 49.42%
Cc1nc(CNC(=O)[C@@H]2CCCN2C(=O)OC(C)(C)C)cs1 | 9.506%
Cc1cc(CN(C)C(=O)NCc2ccco2)no1 | 5.652%
O=C(NCCO)c1ccn(-c2ccc3ccccn23)n1 | -26.54%
Cc1cc(C(O)CCNC(=O)COc2ccccc2C)c(C)o1 (stereo not given) | 2.597% & 18.59%
CCc1noc(CN2CCN(C(=O)Cc3ccc(F)cc3)CC2)n1 | 9.901%
[H][C@@]12CCCCN(C)[C@]1([H])[C@@H](c1ccccc1)CCN2C(=O)c1cccnc1 | -12.88%
O=C(CCC(=O)N1CCOCC1c1ccccc1)c1cccs1 (stereo not given) | 7.837% & 12.98%
O=C(O)C(F)(F)F.O=C(O)C(F)(F)F.[H][C@]12CN(Cc3ccncc3)C(=O)[C@@]1([H])CN(C1CCOCC1)C2 | -1.789% & -4.313%
[H][C@]12CC[C@]([H])(CN(C(C)=O)C1)N(C(=O)CCc1n[nH]c3c1CCCC3)C2 | 4.824%
O=C1NCCCc2[nH]c(Cc3cccc(Cl)c3)nc21 | -4.65%
O=C(C1CC1)N1CCN(C(=O)C2CC(=O)N(c3ccccc3Br)C2)CC1 (stereo not given) | -36.04%
CC(=O)Nc1ccc(SCC(O)COCc2ccccc2)cc1 (stereo not given) | 10.18% & -4.852%
Cc1ncsc1C(=O)NCCSCc1cccs1 | 28.92%
c1ccc(CCCN2CCCC(Nc3cnc4ccccc4n3)C2)cc1 (stereo not given) | 50.6%
COc1cccc(-c2cccc(N3CCC(N[C@@H]4CCOC4)CC3)c2)c1 | 57.44%
O=C(C[S+]([O-])Cc1cccc(Cl)c1)NC1CCCC1 (stereo not given) | 12.01%
CC(C)C(NC(=O)c1ccc(N2CCOCC2)nc1)c1cccs1 (stereo not given) | 17.73%
CC(CNS(N)(=O)=O)c1ccc(F)c(F)c1 (stereo not given) | -2.425% & -3.701%
CC(NCc1ccc(OCC(N)=O)cc1)c1ccc(Cl)cc1.Cl (stereo not given) | -11.25%
CC(C)N(C)S(=O)(=O)N(C)Cc1ccc2c(c1)OCO2 | 23.74%
Cc1cc(C2CCC2)nc(N(C)CCc2ccccn2)n1 | 54.45%
COCCCN(C)C(=O)c1nnn(-c2ccccc2Cl)c1C | 3.637%
Cc1nc(CC(=O)N2c3ccccc3OCC2C)cs1 (stereo not given) | 2.268% & 7.542%
COCCNS(=O)(=O)c1cccc2c1CN(C(=O)c1ccccc1)CC2 | -16.87% & -14.77%
CCC(C)NC(=O)c1ccn(COc2ccccc2Cl)n1 (stereo not given) | -1.059%
CCNC(c1ccc(F)cc1)c1cccnc1 (stereo not given) | -13.53%
CCCC(=O)NS(=O)(=O)c1ccc(C#N)c(C(F)(F)F)c1 | -5.236%
Cc1nc(CCN)cc(N2CCC(O)(c3ccccc3)C2)n1 (stereo not given) | 25.12%
O=C(O)[C@H]1C[C@H](C(=O)NC2CC2)CN(Cc2ccc(-c3cc[nH]n3)s2)C1 | -8.396% & 5.044%
COc1cc(C(=O)Nc2nc(C)no2)ccc1OC(F)F | 21.45%
COc1coc(CN2CCCC(CCc3c(F)cccc3F)C2)cc1=O (stereo not given) | 54.35% & 40.19%
CS(=O)(=O)NCC1CCCCN1Cc1ccccc1C#N (stereo not given) | 18.82%
NC(=O)NC(=O)CCN(Cc1ccccc1)CC1CCOCC1 | 84.62%
Cc1ccc(-c2noc(CN3CC(n4cc(C)cn4)C3)n2)cc1 | 79.83%
Cc1nc[nH]c1CN1CCCC12CCN(c1nc3ccccc3s1)CC2 | 63.01%
Fc1cccc(Cl)c1CNCCCOc1ccccn1 | -3.739% & 7.442%
CC(C)Cc1cc(C(=O)NC(C)C)[nH]n1 | 10.85%
Cc1ccccc1CN1CCC2(COCc3cnc(N(C)C)nc32)C1.O=C(O)C(F)(F)F (stereo not given) | 53.3%
CC(C(=O)O)N1CCc2onc(-c3ccc(F)c(F)c3)c2C1 (stereo not given) | -2.652% & 1.866%
Cc1ccc(C)c(NC(=O)c2coc(C)n2)c1 | 20.1%
c1cc(N2CCCCC2)ccc1-c1noc(CN2CCOCC2)n1 | 26.41%
O=C(NCCC(=O)N1CCCc2ccccc21)c1ccc(F)cc1F | -13.49%

For reference, 12 entries once more:

Result for O=C(NCCC(=O)N1CCCc2ccccc21)c1ccc(F)cc1F was -13.49%.
Result for Cc1cc(C(O)CCNC(=O)COc2ccccc2C)c(C)o1 (stereo not given) was 2.597% & 18.59%.
Result for CCn1ncc(-c2cc(C(F)(F)F)nc(N3CCC(N)CC3)n2)c1C was 47.95% & 43.22%.
Result for Cc1cc(Cl)ccc1C(=O)C1CCCN(Cc2cnc(N(C)C)s2)C1 (stereo not given) was 47.2% & 50.71%.
Result for CC(C(=O)O)N1CCc2onc(-c3ccc(F)c(F)c3)c2C1 (stereo not given) was -2.652% & 1.866%.
Result for CC(C)COC(C)C(=O)NCc1ccccc1 (stereo not given) was 3.013%.
Result for CCc1ccc(CN2CCOC(Cc3cccc(F)c3)C2)nc1 (stereo not given) was 50.41%.
Result for c1cc(N2CCCCC2)ccc1-c1noc(CN2CCOCC2)n1 was 26.41%.
Result for COc1ccc(C[C@H]2CN(C(=O)C3CC3)CC[C@H]2OC)cc1 was -7.852%.
Result for NC(=O)NC(=O)CCN(Cc1ccccc1)CC1CCOCC1 was 84.62%.
Result for O=C1Nc2ccccc2CN(CC2CC2)C12CCNC2 (stereo not given) was 46.51%.
Result for CCc1noc(CN2CCN(C(=O)Cc3ccc(F)cc3)CC2)n1 was 9.901%.

Data taken from ChEMBL document CHEMBL3988442, “University of Dundee, Small-Polar-MMV Screening Library” (2021).